Reference: patent US20080261312A1, “Methods for matrix cleanup and analysis of drugs and metabolites in biological matrices” (priority 2007, published 2008)

Assay: Quantification of ion-suppression/enhancement (matrix effect), Matuszewski method, post-spiked WAX-aided extracts vs neat solutions, LC-MS/MS

NC1=N[C@H](O)[C@H]2[C@H]3O[C@]4(O)O[C@@H]([C@@H](O)[C@@]2(N1)[C@@H]4O)[C@]3(O)CO [Tetrodotoxin]
Matrix Effect (%): 97.6%
